Measured values from several laboratories, pooled; numbers as filed in NIAID ChemDB.

All rows: tests in culture; organism: Hepatitis B virus; read by: PCR; endpoint: EC50

ECn: concentration that inhibits the pathogen or its effect by n%.

SMILES	cell line	strain	result
C[C@@H](c1cnc([C@@]2(F)CN(C(=O)c3ccc(Br)c(Cl)c3)CCS2(=O)=O)s1)c1ccccc1F	HepG2.117	-	<0.1 µM
CN(Cc1ccccn1)S(=O)(=O)Nc1ccc2c(C(=O)Nc3ccc(F)c(Cl)c3)n(C)nc2c1	HepAD38	-	100–1000 µM
Cn1cc(S(=O)(=O)N[C@@H]2CCN(S(=O)(=O)C3(C)CC3)C2)c(F)c1C(=O)Nc1ccc(F)c(F)c1	HepAD38 cells	-	<0.1 µM
C[C@H](c1ccccc1)c1cnc([C@]2(F)CN(C(=O)c3ccc(Br)c(Cl)c3)CCS2(=O)=O)s1	HepG2.117	-	0.5–5 µM
C[C@@H](NC(=O)C(=O)N1CC2(COc3c(cn(C)c3C(=O)Nc3ccc(F)c(C(F)F)c3)S(=O)(=O)N2)C1)C(F)(F)F	HepAD38	Genotype D	<0.5 µM
C[C@@H](NC(=O)C(=O)N1CC[C@@H](NS(=O)(=O)c2cn(C)c(C(=O)Nc3cc(F)c(F)c(F)c3)c2F)C1)C(F)(F)F	HepAD38 cells	-	<0.1 µM
C[C@H]1CS(=O)(=O)[C@@H](c2cccs2)CN1C(=O)Nc1ccc(F)c(Cl)c1	HepG2.117	-	0.1–0.5 µM
C[C@@H](NC(=O)C(=O)N1CCC2(COc3c(c(Cl)n(C)c3C(=O)Nc3ccc(F)c(Cl)c3)S(=O)(=O)N2)C1)C(F)(F)F	HepAD38	Genotype D	<0.5 µM
Cc1cc(NC(=O)c2c3c(C)c(C)[nH]c(=O)c3c(C)n2C)ccc1F	HepAD38	-	0.5–1 µM
Cn1nc2cc(NS(=O)(=O)NCc3ncccc3F)ccc2c1C(=O)Nc1ccc(F)c(Cl)c1	HepAD38	-	100–1000 µM
O=C(c1ccc(Br)c(Cl)c1)N1CCS(=O)(=O)[C@H](c2cccs2)C1	HepG2.2.15	-	0.1–0.5 µM
Cc1cc(NC(=O)c2c3c(c(C)n2C)C(=O)NC(C)(C)CC3)cnc1F	HepAD38	-	>1 µM
O=C(c1ccc(Cl)c(Cl)c1)N1CCS(=O)(=O)C(c2nccs2)C1	HepG2.117	-	0.5–5 µM
CCOC(=O)C1=C(CN2CC(F)(F)[C@@H]3[C@H]2CON3C[C@H](O)C(C)(C)C(=O)O)NC(c2nccs2)=N[C@H]1c1cccc(F)c1F	HepG2.2.15	-	0.179 µM
Cc1cc(NC(=O)c2c3c(c(C)n2C)C(=O)N[C@@H](C)C3)ccc1F	HepAD38	-	<0.05 µM
Cn1nc2cc(N(CCO)S(=O)(=O)NC3CC3)ccc2c1C(=O)Nc1ccc(F)c(Cl)c1	HepAD38	-	>1000 µM
CC(C)Oc1ccc(-n2c(C(=O)NCc3ccccc3)c3n(c2=O)CCN(C(=O)c2ccc(Br)c(C#N)c2)C3)cc1	HepG2.117	-	0.5–5 µM
C[C@@H](NC(=O)C(=O)N1CC[C@@]2(COc3c(cn(C)c3C(=O)Nc3ccc(F)c(C(F)F)c3)S(=O)(=O)N2)C1)C(F)(F)F	HepAD38	Genotype D	<0.5 µM
O=C(NCc1ccccc1)c1c2n(c(=O)n1-c1ccc(N3CCO[C@@H](C(F)(F)F)C3)cc1)CCN(C(=O)c1ccc(Br)c(Cl)c1)C2	HepG2.117	-	0.1–0.5 µM
C[C@@]12C(=O)N(CCO)C(=O)[C@]1(C)C1CCC2O1	HepG2.2.15	-	0.0192 µM
CCOC(=O)C1=C(CN2CC(F)(F)[C@@H]3[C@H]2CON3C[C@@H](F)CC(C)(C)C(=O)O)NC(c2nccs2)=N[C@H]1c1cccc(F)c1C	HepG2.2.15	-	0.009 µM
C[C@H]1CS(=O)(=O)[C@](F)(c2ncc(Cc3ccccc3)s2)CN1C(=O)c1ccc(Br)c(Cl)c1	HepG2.117	-	0.1–0.5 µM
C[C@@H]1Cn2c(c(C(=O)NCc3ccccc3-c3ncccn3)n(-c3ccc(-n4cccn4)cc3)c2=O)CN1C(=O)c1ccc(Br)c(C#N)c1	HepG2.2.15	-	0.1–0.5 µM
C[C@@]1(c2ncc(Cc3ccccc3)s2)CN(C(=O)c2ccc(Br)c(Cl)c2)CCS1(=O)=O	HepG2.117	-	0.5–5 µM
C[C@@H](NC(=O)C(=O)N1CC2(COc3c(c(Cl)n(C)c3C(=O)Nc3ccc(F)c(Cl)c3)S(=O)(=O)N2)C1)C(F)(F)F	HepAD38	Genotype D	<0.5 µM
Cn1nc2cc(NS(=O)(=O)c3cnn(S(C)(=O)=O)c3)ccc2c1C(=O)Nc1ccc(F)c(Cl)c1	HepAD38	-	100–1000 µM
Cc1c2c(c(C(=O)Nc3ccnc(F)c3)n1C)CCC(C)(C)NC2=O	HepAD38	-	0.05–0.499 µM
COC(=O)C1=C(CN2CC(F)(F)[C@@H]3[C@H]2CON3C[C@H](OC)C(C)(C)C(=O)O)NC(c2nc(C)cs2)=N[C@H]1c1ccc(F)c(F)c1C	HepG2.2.15	-	0.025 µM
Cc1c(F)cccc1-n1cc(S(=O)(=O)Nc2ccc3c(C(=O)Nc4ccc(F)c(Cl)c4)n(C)nc3c2)cn1	HepAD38	-	100–1000 µM
Cn1cc2c(c1C(=O)Nc1ccc(F)c(C(F)F)c1)OCC1(CN(C(=O)C(=O)NC3CC3)C1)NS2(=O)=O	HepAD38	Genotype D	<0.5 µM
C[C@H](NC(=O)c1c2n(c(=O)n1-c1ccc(OCC(F)(F)F)cc1)CCN(C(=O)c1ccc(Br)c(Cl)c1)C2)c1ccc(OCC(N)=O)cc1-n1cccn1	HepG2.117	-	>0.5 µM
CCOC(=O)C1=C(CN2CC(F)(F)[C@@H]3[C@H]2CON3C[C@H](O)C(C)(C)C(=O)O)NC(c2nccs2)=N[C@H]1c1cccc(F)c1Cl	HepG2.2.15	-	0.0285 µM
Cn1nc2cc(C(=O)NC[C@@H](O)CO)ccc2c1C(=O)Nc1ccc(F)c(Cl)c1	HepAD38	-	>1000 µM
Cc1cc(F)cc(NC(=O)c2c3c(c(C)n2C)C(=O)NC(C)(C)CC3)c1	HepAD38	-	<0.05 µM
CCOC(=O)C1=C(CN2CC(F)(F)[C@@H]3[C@H]2CON3C[C@@H](F)C(C)(C)C(=O)O)NC(c2nccs2)=N[C@H]1c1ccc(F)cc1Cl	HepG2.2.15	-	0.00095 µM
C[C@@H](NC(=O)C(=O)N1CCC2(COc3c(c(Cl)n(C)c3C(=O)Nc3ccc(F)c(C(F)F)c3)S(=O)(=O)N2)C1)C(F)(F)F	HepAD38	Genotype D	<0.5 µM
CC[C@@H](C)NC(=O)C(=O)N1CCC(NS(=O)(=O)c2cn(C)c(C(=O)Nc3cc(F)c(F)c(F)c3)c2F)CC1	HepAD38 cells	-	<0.1 µM
COc1ccc(-n2c(C(=O)NCc3ccnnc3)c3n(c2=O)CCN(C(=O)c2ccc(Cl)c(Cl)c2)C3)cc1	HepG2.117	-	>5 µM
COCCCS(=O)(=O)N1CC[C@@H](NS(=O)(=O)c2cn(C)c(C(=O)Nc3ccc(F)c(F)c3)c2F)C1	HepAD38 cells	-	<0.1 µM
Cn1nc2cc(NS(=O)(=O)NC3CN(Cc4ccccc4)C3)ccc2c1C(=O)Nc1ccc(F)c(Cl)c1	HepAD38	-	>1000 µM
C[C@@]12C(=O)N(CCc3ccc(O)cc3)C(=O)[C@]1(C)C1CCC2O1	HepG2.2.15	-	0.066 µM
Cc1c2c(c(C(=O)Nc3cc(F)c(F)c(F)c3)n1C)CCC(C)(C)NC2=O	HepAD38	-	>1 µM
CCOC(=O)C1=C(CN2CC(F)(F)[C@@H]3[C@H]2CON3C[C@H](OC)C(C)(C)C(=O)O)NC(c2nccs2)=N[C@H]1c1ccc(F)c(F)c1F	HepG2.2.15	-	0.058 µM
O=C(c1ccc(Br)c(Cl)c1)N1CCn2c(c3n(c2=O)C[C@H](O)CN(Cc2ccccc2)C3=O)C1	HepG2.117	-	0.5–5 µM
CCOC(=O)C1=C(CN2CC(F)(F)[C@@H]3[C@H]2CON3CC[C@@](C)(OC)C(=O)O)NC(c2nccs2)=N[C@H]1c1ccc(F)c(F)c1Cl	HepG2.2.15	-	0.026 µM
C[C@@H](Oc1ccc([C@@H](C)NC(=O)c2c3n(c(=O)n2-c2ccc(OCC(F)(F)F)cc2)CCN(C(=O)c2ccc(Br)c(Cl)c2)C3)c(F)c1)C(N)=O	HepG2.117	-	0.5–5 µM
CCOC(=O)C1=C(CN2CC(F)(F)[C@@H]3[C@H]2CON3CC[C@@](C)(O)C(=O)O)NC(c2nccs2)=N[C@H]1c1cccc(F)c1C	HepG2.2.15	-	0.3005 µM
C[C@H](NC(=O)C(=O)N1CCC2(CC1)COc1c(cn(C)c1C(=O)Nc1ccc(F)c(C(F)F)c1)S(=O)(=O)N2)C(F)(F)F	HepAD38	Genotype D	<0.5 µM

Blank or dashed fields: not listed here. Two numbers with a dash give a range or band. Conditions beyond the fields shown may differ between rows.